From paper PMC6627197, “Development of a High Throughput Screen for the Identification of Inhibitors of Peptidoglycan O-Acetyltransferases, New Potential Antibacterial Targets” (Antibiotics, 2019)

Legend:
N. gonorrhoeae FA1090 = assay: Microtiter plate growth / MIC assay, N. gonorrhoeae; details: concentrations up to solubility limit
S. aureus ATCC 6538 = assay: Microtiter plate growth / MIC assay, S. aureus; details: concentrations up to solubility limit

SMILES	Effect on growth of N. gonorrhoeae FA1090 (N. gonorrhoeae FA1090)	Effect on growth of S. aureus ATCC 6538 (S. aureus ATCC 6538)
O=c1ccc2cc(O[C@@H]3O[C@H](CO)[C@@H](O)[C@H](O)[C@H]3O)c(O)cc2o1 [Esculin]	neither esculin nor scopoletin had any significant effect	neither esculin nor scopoletin had any significant effect
COc1cc2ccc(=O)oc2cc1O [Scopoletin]	neither esculin nor scopoletin had any significant effect	neither esculin nor scopoletin had any significant effect
